Species: Mus musculus
Assay: Toxicity in mouse
Conditions: in vivo

C=C(/C=C\C[C@@H](O)[C@@H](O)[C@H](O)C/C=C/C=C\[C@@H](O)C[C@@H]1O[C@H](C[C@@H](O)[C@H](O)C[C@H]2O[C@H]([C@H](O)[C@H](O)CC[C@H](O)/C=C/[C@H](C)[C@@H](O)C[C@]3(O)O[C@H](C[C@@H](O)CCCCCCC[C@@]45C[C@@H](C)C[C@@](C)(O4)[C@@H](C[C@@H](C)CCCCC[C@@H](O)[C@H](O)[C@H](O)[C@@H](O)[C@H](O)[C@H]4O[C@H](C[C@H](O)[C@H](O)/C(C)=C/[C@H](O)C[C@@H](C)[C@H](O)C(=O)N/C=C/C(=O)NCCCO)[C@H](O)[C@@H](O)[C@@H]4O)O5)[C@H](O)[C@@H](O)[C@H]3O)C[C@@H](O)[C@@H]2O)[C@@H](O)[C@H](O)[C@H]1O)CC[C@H](O)[C@@H](O)[C@H](O)[C@H](C)C[C@H]1O[C@H](/C=C\[C@@H](O)[C@H](O)C[C@@H]2C[C@@H]3C[C@H](O2)[C@@H](CC[C@H]2O[C@H](CN)C[C@H]2O)O3)[C@@H](O)[C@H](O)[C@H]1O
LD100: 1.3 µg/kg

Source: ChEMBL document CHEMBL1151385, “Antineoplastic Agents 78. Isolation of Palystatins 1-3 From the Indian Ocean Palythoa liscia” (J Nat Prod, 1982)
